The values below are quoted from earlier work in paper PMC5498545.

For orientation: Kd means the equilibrium constant for the complex coming apart.

For this series, the target named is Nucleoprotein N-RNA rings (Rabies virus) (UniProt Q8JXF6).

For the substance “Phosphoprotein P dimer (from UniProt P22363)”, the dissociation constant (Kd) is 0.16 µM.
